Taken from: PubChem BioAssay AID1259414 (Drosophila RNAi Screening Center, 2018)
The deposit covers about 24,000 reagents; this is a random part of those that have a named target and a result. Over the whole deposit, about 1,210 (5%) are marked active. 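Inactive calls also include excluded dsRNAs with several or no targets, genes unexpressed in JW18, and well A1, regardless of score.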 Names joined by + are all predicted targets of the reagent.

Screen: 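Host factors increasing or decreasing Wolbachia levels in cultured fly cells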 (primary screen)
Cells: Drosophila JW18 cells infected with Wolbachia
Reagents: long dsRNA against Drosophila genes, 0.25 µg dsRNA per well of a 384-well plate
Duration: 5 days
Challenge: cells persistently infected with Wolbachia before knock-down; no added drug
Detection: 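Imaged fluorescence in situ signal for Wolbachia 23S rRNA per DAPI-counted host cell, given as a robust z-score within each plate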
Reading the numbers: Wolbachia per cell robust z: higher = more Wolbachia per host cell than the plate typical
Active means: 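Active if absolute robust z reaches 1.5 in two or more of three replicates, leaving out multi- or no-target dsRNAs, genes unexpressed in JW18 and A1 wells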

gene	dsRNA	Wolbachia per cell robust z, rep 1	Wolbachia per cell robust z, rep 2	Wolbachia per cell robust z, rep 3	activity call
CG17490	DRSC03797	1.26	0.265	-1.42	inactive
CG17490	DRSC26780	-0.28	-0.148	0.643	inactive
CG16989	DRSC18535	-1.03	0.584	-1.56	inactive
CG16989	DRSC29403	0.575	-0.229	-0.494	inactive
CG34347	DRSC14305	-2.29	0.902	0.964	inactive
CG34347	DRSC23044	0.384	1.44	-0.432	inactive
CG34347	DRSC24430	0.634	0.495	-0.955	inactive
Gbp1	DRSC06592	-0.0977	-0.157	0.435	inactive
CG9686	DRSC18439	-1.18	-1.7	-0.433	inactive
CG9686	DRSC28497	0.731	0.371	-0.13	inactive
CG42361	DRSC04391	0.461	0.128	0.642	inactive
CG13405	DRSC08310	0.127	0.36	0.0517	inactive
CG13405	DRSC27289	-6.68	-2.04	-3.6	active
CG32163	DRSC09442	0.965	0.263	0.762	inactive
CG32163	DRSC21888	-3.44	-0.322	-0.314	inactive
CG32163	DRSC28736	0.675	-1.52	-0.359	inactive
Mal-A2	DRSC07460	-0.24	-5.38	0.672	inactive
dgt5	DRSC07280	-0.586	1.07	-0.338	inactive
dgt5	DRSC29379	0.769	1.32	0.614	inactive
CG9760	DRSC11101	0.772	-0.153	1.2	inactive
CG9760	DRSC28846	-0.679	0.117	-0.288	inactive
RhoGAP54D	DRSC06990	0.882	1.52	0.092	inactive
RhoGAP54D	DRSC26684	0.276	0.0974	0.186	inactive
l(1)sc	DRSC18789	-0.362	-0.757	0.767	inactive
l(1)sc	DRSC28734	0.39	0.537	0.524	inactive
Phlpp	DRSC02065	0.508	-0.934	-0.0533	inactive
Phlpp	DRSC22808	-0.665	-1.31	0.191	inactive
bves	DRSC20520	0.928	0.715	0.0252	inactive
bves	DRSC20555	-1.68	-3.16	-1.78	active
CG14864	DRSC14987	-0.208	1.38	0.495	inactive
Charon	DRSC00679	0.617	-0.341	0.0345	inactive
tank	DRSC00461	-0.763	-0.543	-1.75	inactive
CG34177 + CG34178	DRSC00351	-0.139	0.437	-0.355	inactive
Sc2	DRSC08162	0.482	-0.0783	-1.3	inactive
Sc2	DRSC26153	0.0492	-0.833	-0.369	inactive
Smr	DRSC22986	1.59	1.55	-6.46	active
Smr	DRSC25781	1.03	2.37	4.4	active
a6	DRSC18733	-0.133	-5.6	-7.36	active
CG6873	DRSC20014	-0.27	0.495	0.443	inactive
TwdlB	DRSC16050	-4.01	-1.32	-3.23	inactive
TwdlB	DRSC25071	-1.04	-1.76	-0.701	inactive
CG5639	DRSC15851	-0.37	0.961	-3.8	inactive
CG5953	DRSC01546	-1.05	-0.339	-2.1	inactive
CG5953	DRSC28725	-0.11	-2.49	0.204	inactive
CG31875	DRSC21975	0.618	-0.00607	-1.07	inactive
CG32797	DRSC25152	-0.299	0.607	-0.885	inactive
CG15005	DRSC08459	-0.0313	-1.25	0.405	inactive
CG15005	DRSC26556	-1.38	-0.151	-0.719	inactive
CG32533	DRSC19443	-0.104	-7.91	-1.26	inactive
CG32533	DRSC19553	-0.192	-0.537	0.0157	inactive
CG32533	DRSC24560	-0.857	0.872	-1.75	inactive
CG32533	DRSC39093	-0.0732	-5.68	-0.364	inactive
Srrm1	DRSC09835	-0.834	-1.67	0.282	inactive
CG2991	DRSC00559	-5.87	-1.09	-0.822	inactive
CG2991	DRSC26300	-0.00204	0.42	0.0744	inactive
Fnta	DRSC00557	0.989	0.112	0.645	inactive
Fnta	DRSC28877	-1.16	-0.435	-2.44	inactive
RpL35A	DRSC12302	0.441	1.27	2.93	inactive
CG10650	DRSC02085	-0.564	0.0157	-7.88	inactive
OSCP1	DRSC06304	-0.781	0.452	-2.25	inactive
rump	DRSC16480	0.653	-1.07	0.865	inactive
CG7789	DRSC16312	-0.376	-0.12	-0.445	inactive
CG7789	DRSC41623	-2.96	-1.06	-1.28	inactive
CG17625	DRSC15249	0.0242	0.58	-1.44	inactive
SdhA	DRSC07547	0.595	0.146	0.653	inactive
CG14893	DRSC15015	-2.19	-0.538	-1.22	inactive
Taf11	DRSC03448	0.355	0.823	0.448	inactive
klar	DRSC08718	1	-5.8	0.317	inactive
klar	DRSC22393	-0.545	-1.5	0.114	inactive
klar	DRSC40827	-0.279	-0.577	0.618	inactive

A run of entries from the list above, for reference:
gene	dsRNA	Wolbachia per cell robust z, rep 1	Wolbachia per cell robust z, rep 2	Wolbachia per cell robust z, rep 3	activity call
CG34347	DRSC23044	0.384	1.44	-0.432	inactive
CG34347	DRSC24430	0.634	0.495	-0.955	inactive
Gbp1	DRSC06592	-0.0977	-0.157	0.435	inactive
CG9686	DRSC18439	-1.18	-1.7	-0.433	inactive
CG9686	DRSC28497	0.731	0.371	-0.13	inactive
CG42361	DRSC04391	0.461	0.128	0.642	inactive
CG13405	DRSC08310	0.127	0.36	0.0517	inactive
CG13405	DRSC27289	-6.68	-2.04	-3.6	active
CG32163	DRSC09442	0.965	0.263	0.762	inactive
